Results from paper PMC8175989.
Construct, isoform or probe ends are uncertain for at least one entry.

How the values were obtained:
[1] = molecular target: NsrR (Vibrio vulnificus MO6-24/O) (UniProt Q8DCU1); assay: DNase I footprinting; settings: protects -2 to +18 from hmpA TSS (NSRRB); recombinant protein; protein details: His6; probe letters rebuilt from the primers and the genome
[2] = system: Lrp; assay: DNase I footprinting; settings: protects -75 to -11 from hmpA TSS (LRPB), phased hypersensitivity; recombinant protein; protein details: His6; probe letters rebuilt from the primers and the genome
[3] = system: CRP (Vibrio vulnificus); assay: DNase I footprinting; settings: 1 mM cAMP, protects CRPB1 -10 to +10, CRPB2 -69 to -31, CRPB3 -99 to -88 from nsrR TSS; recombinant protein; protein details: His6; probe letters rebuilt from the primers and the genome
[4] = molecular target: NsrR (Vibrio vulnificus MO6-24/O) (UniProt Q8DCU1); assay: EMSA; settings: poly(dI-dC) 0.1 ug, unlabeled self-competitor competes; EMSA 10 nM probe (DNase I 40 nM), 30 min, 30 C, 20 ul, 0.1 ug poly(dI-dC); recombinant protein; protein details: His6; probe letters rebuilt from the primers and the genome
[5] = system: NsrR + Lrp; assay: EMSA; settings: simultaneous binding of NsrR and Lrp, Lrp binding buffer; EMSA 10 nM probe (DNase I 40 nM), 30 min, 30 C, 20 ul, 0.1 ug poly(dI-dC); recombinant protein; protein details: His6,His6; probe letters rebuilt from the primers and the genome
[6] = system: Lrp; assay: EMSA; settings: poly(dI-dC) 0.1 ug, unlabeled self-competitor competes; EMSA 10 nM probe (DNase I 40 nM), 30 min, 30 C, 20 ul, 0.1 ug poly(dI-dC); recombinant protein; protein details: His6; probe letters rebuilt from the primers and the genome
[7] = system: CRP (Vibrio vulnificus); assay: EMSA; settings: 1 mM cAMP, unlabeled self-competitor competes; EMSA 10 nM probe (DNase I 40 nM), 30 min, 30 C, 20 ul, 0.1 ug poly(dI-dC); recombinant protein; protein details: His6; probe letters rebuilt from the primers and the genome

Measured: binding result

ATTGCGTTGGTTGCTCATGTTAAAGATATCTTTGAGTTCAGGATTGTGCTCAAACATACGTTGGTAGAAATGGGCGGTCAGTTTTGGTCCTGTTTCGGCCAACAGGGGGGCGGTCGATTTTACAATGTTAATGGTGTTTTCGCTGAGCATAGCGGGCTTCCTATTAGGATTATTTGTTTAATTTTAAGTTGCATCTGTAATGCATGTTTAAAGTTGTATCTCAAATGTATCTTTCAATCAAGAAAAGTTTTAGACTTTCTTCACCATAGAGGAGCCCACCATGCAACTGACGAGCTTTACTGATTACGCCTTGCGCACCCTGATTTATCTCGCGTCGTTGCCGGATAATGAACAGACCAATATCACCGATGTGACTGAGCTATTTGGTGTTTC (double strand) [nsrR-hmpA regulatory region, 393 bp]
binds: all assays above
